{
  "source": "patent US20130310452A1",
  "about": "“ANTIFUNGAL FLAVOURING INGREDIENTS AND COMPOSITIONS” (FIRMENICH SA, priority 2011, published 2013)",
  "tested_on": "main fungi responsible for beverage and food spoilage (yeast and mould strains)",
  "assay": "Growth inhibition of yeast and mould strains in 105 g/L sucrose solution (OD after 21 days)",
  "assay_type": "cell-based",
  "conditions": "sucrose solution at pH 3; concentrations of 1000 ppm or less; OD below 0.2 after 21 days at 25° C.; 16 strains tested",
  "method": "The antifungal activity of various flavouring ingredients was evaluated against the following yeast strains: Zygosaccharomyces rouxii (DSM70835), Pichia membranaefaciens (DSM 70369), Dekkera Bruxellensis (DSM70726), Saccharomyces cerevisiae (DSM 70869) and Candida krusei (origin: Leatherhead Food Research) and against the following moulds strains: Byssochlamys nivea, Fusarium solani, Aspergillus fumigatis, Byssochlamys fulva, Aspergillus niger, Talaromyces Harzanium, Penicillium crustosum, Penicillium digitatum, Neosartorya fischeri, Penicillium roquerforti, Fusarium oxysporum.\nA 105 g/L solution of sucrose in water at pH 3±0.2 was prepared. Another sucrose solution at the same concentration at pH 5±0.2 was also prepared. The sucrose solutions were autoclaved at 121° C. for 15 minutes and the pH was re-checked to ensure it remained within the range.\nTest samples were then prepared in microtiter plates. An amount of 100 μL of sucrose solution prepared above, were mixed with an inoculum of 20 μL of one fungal strain, so as to achieve a microbial level comprised between 10^2 and 10^3 cfu/mL.\nThe flavouring ingredient or composition was then added to the microtiter plate. […]\nThe optical density (OD) of each sample was measured after 21 days of incubation using a Bio-Tek Synergy™ HT Multi-Mode Microplate Reader (from Labtech International, UK). […]",
  "data": [
    {"molecule": "Cc1ccc(O)cc1C", "values": [
      {"measurement": "number of the main fungi responsible for beverage and food spoilage against which there is a strong antifungal effect", "value": 3}
    ]}
  ]
}
